Potato spindle tuber viroid, loop 6: variant abundance in plants

Values reported by Wu et al. 2024 (doi:10.1371/journal.ppat.1012142).

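A pool of all variants was put on leaves of three Nicotiana benthamiana plants. Progeny were sequenced from the inoculated region (day 5), the margin of the inoculated leaf (day 10) and systemic leaves (day 12).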

The pool varies loop 6 of the PSTVd intermediate strain in the pattern UNNNCGNNNG; wild type is UGACCGCGAG (upper and lower strand joined, each 5' to 3', the first 5 letters being the upper strand, closing pairs included).

Numbers give reads per thousand; 0 = not seen among the reads, higher = more abundant. Each site shows the three plants. "Pool" is the share in the plasmid pool used as inoculum, on the same scale. The inoculated region was read from the minus strand, the other sites from the plus strand. For reference, wild type rose from 20.7 per thousand in the pool to 195, 198, 203 (inoculated region), 629, 591, 734 (leaf margin) and 942, 870, 868 (systemic leaves). The authors trace changes outside the varied positions to PCR and sequencing errors or to mutation in the plant; presence does not show that a variant is infectious alone. Samples held 36,220 to 57,551 reads, so the smallest values rest on one or two reads.

- UACCCGCUCG (pool 0.170) -> inoculated region 0.104 / 0.126 / 0.0369; leaf margin 0 / 0 / 0.0232; systemic leaves 0 / 0 / 0
- UGGCCGAUAG (pool 0.235) -> inoculated region 0.139 / 0.162 / 0.203; leaf margin 0.0552 / 0 / 0.116; systemic leaves 0 / 0 / 0.0205
- UUUGCGAUAG (pool 0.314) -> inoculated region 0.0521 / 0.0539 / 0.0184; leaf margin 0 / 0 / 0.0464; systemic leaves 0 / 0 / 0
- UUAGCGUCGG (pool 0.261) -> inoculated region 0.104 / 0.0719 / 0.111; leaf margin 0 / 0 / 0; systemic leaves 0 / 0 / 0.0205
- UCGUCGCUCG (pool 0.222) -> inoculated region 0.0869 / 0.0719 / 0.0922; leaf margin 0 / 0 / 0.0232; systemic leaves 0 / 0 / 0
- UUACCGUGGG (pool 0.170) -> inoculated region 0.0869 / 0.0898 / 0.148; leaf margin 0.0828 / 0 / 0.0232; systemic leaves 0 / 0 / 0
- UAUGCGUCAG (pool 0.248) -> inoculated region 0.782 / 0.862 / 0.627; leaf margin 0.0276 / 0 / 0; systemic leaves 0 / 0 / 0
- UUAUCGCGCG (pool 0.261) -> inoculated region 0.104 / 0.0539 / 0.166; leaf margin 0 / 0 / 0; systemic leaves 0 / 0 / 0
- UGACCGACCG (pool 0.275) -> inoculated region 0.243 / 0.144 / 0.0738; leaf margin 0.276 / 0.227 / 0.0232; systemic leaves 0.0898 / 0.0808 / 0.0615
- UAGACGGGAG (pool 0.144) -> inoculated region 0.678 / 0.611 / 0.369; leaf margin 0.166 / 0.0757 / 0.0696; systemic leaves 0 / 0 / 0
- UUGCCGAGUG (pool 0.235) -> inoculated region 0.104 / 0.0359 / 0.129; leaf margin 0.0276 / 0 / 0; systemic leaves 0.0180 / 0 / 0
- UGGUCGGAAG (pool 0.118) -> inoculated region 0.209 / 0.0359 / 0.0738; leaf margin 0 / 0 / 0; systemic leaves 0 / 0 / 0
- UCAUCGGGAG (pool 0.209) -> inoculated region 0.695 / 0.754 / 0.479; leaf margin 0.166 / 0.101 / 0.209; systemic leaves 0 / 0 / 0
- UUCCCGCUAG (pool 0.118) -> inoculated region 0.0869 / 0.144 / 0.111; leaf margin 0.0552 / 0 / 0; systemic leaves 0 / 0 / 0
- UUUUCGGGGG (pool 0.0915) -> inoculated region 0.139 / 0.108 / 0.0738; leaf margin 0 / 0 / 0.0232; systemic leaves 0 / 0 / 0
- UAAACGAAAG (pool 0.170) -> inoculated region 0.747 / 0.611 / 0.627; leaf margin 0.138 / 0.151 / 0.116; systemic leaves 0 / 0 / 0.0410
- UUACCGCCGG (pool 0.209) -> inoculated region 0.0695 / 0.162 / 0.111; leaf margin 0 / 0 / 0.0232; systemic leaves 0 / 0 / 0
- UCAGCUGUGG (pool 0.0131) -> inoculated region 0 / 0 / 0; leaf margin 0 / 0 / 0; systemic leaves 0 / 0 / 0
- UCGACGUGAG (pool 0.327) -> inoculated region 0.122 / 0.198 / 0.0553; leaf margin 0 / 0 / 0.0464; systemic leaves 0 / 0 / 0
- UCCUCGCAAG (pool 0.144) -> inoculated region 0.0695 / 0.162 / 0.129; leaf margin 0 / 0 / 0.0232; systemic leaves 0 / 0 / 0
- UUGUCGACUG (pool 0.340) -> inoculated region 0.0695 / 0.0898 / 0.111; leaf margin 0 / 0 / 0.0232; systemic leaves 0 / 0 / 0.0205
- UGACCCCGUG (pool 0.0131) -> inoculated region 0 / 0 / 0; leaf margin 0 / 0.101 / 0; systemic leaves 0 / 0 / 0
- UUCCCGCCGG (pool 0.209) -> inoculated region 0.0869 / 0.0539 / 0.111; leaf margin 0 / 0 / 0; systemic leaves 0 / 0 / 0
- UGGUCGACGG (pool 0.353) -> inoculated region 0.0174 / 0.126 / 0.0922; leaf margin 0 / 0 / 0; systemic leaves 0 / 0 / 0.0205
- UGCUCGGGGG (pool 0.118) -> inoculated region 0.139 / 0.0898 / 0.0922; leaf margin 0 / 0 / 0; systemic leaves 0 / 0 / 0
- UCGGCGAGCG (pool 0.235) -> inoculated region 0.104 / 0.0719 / 0.0369; leaf margin 0 / 0 / 0; systemic leaves 0 / 0 / 0.0205
- UUAACGAACG (pool 0.261) -> inoculated region 0.678 / 0.683 / 0.443; leaf margin 0.0828 / 0.0252 / 0.0696; systemic leaves 0.0359 / 0.0404 / 0.0410
- UAAACGGGUG (pool 0.131) -> inoculated region 0.539 / 0.665 / 0.553; leaf margin 0.110 / 0.0504 / 0.0928; systemic leaves 0 / 0.0202 / 0.0205
- UUGUCGAUAG (pool 0.510) -> inoculated region 0.226 / 0.0539 / 0.0369; leaf margin 0 / 0 / 0.232; systemic leaves 0 / 0 / 0
- UAUUCGUCUG (pool 0.366) -> inoculated region 0.122 / 0.0539 / 0.129; leaf margin 0 / 0 / 0; systemic leaves 0 / 0 / 0
- UGCCCGGAAG (pool 0.118) -> inoculated region 0.191 / 0.0898 / 0.0369; leaf margin 0.0276 / 0 / 0.0232; systemic leaves 0 / 0 / 0
- UGUUCGUGUG (pool 0.445) -> inoculated region 0.122 / 0.0539 / 0.0922; leaf margin 0 / 0 / 0.0232; systemic leaves 0 / 0 / 0
- UGCGCGAAGG (pool 0.157) -> inoculated region 0.104 / 0.0359 / 0.0369; leaf margin 0 / 0 / 0; systemic leaves 0 / 0 / 0

The last 4 entries again:

{"sequence": "UAUUCGUCUG", "pool": "0.366", "inoculated region": "0.122 / 0.0539 / 0.129", "leaf margin": "0 / 0 / 0", "systemic leaves": "0 / 0 / 0"}
{"sequence": "UGCCCGGAAG", "pool": "0.118", "inoculated region": "0.191 / 0.0898 / 0.0369", "leaf margin": "0.0276 / 0 / 0.0232", "systemic leaves": "0 / 0 / 0"}
{"sequence": "UGUUCGUGUG", "pool": "0.445", "inoculated region": "0.122 / 0.0539 / 0.0922", "leaf margin": "0 / 0 / 0.0232", "systemic leaves": "0 / 0 / 0"}
{"sequence": "UGCGCGAAGG", "pool": "0.157", "inoculated region": "0.104 / 0.0359 / 0.0369", "leaf margin": "0 / 0 / 0", "systemic leaves": "0 / 0 / 0"}